Measurements published in article PMC6753678, “Fueling Open Innovation for Malaria Transmission-Blocking Drugs: Hundreds of Molecules Targeting Early Parasite Mosquito Stages” (Frontiers in Microbiology, 2019).

Key:
[1] = tested on: P. falciparum female gametocytes; assay: P. falciparum female gametogenesis assay (Pf FGAA); conditions: unified cytotox over Pf FGAA IC50; red: <10-fold selectivity; green: >10-fold
[2] = tested on: P. falciparum late stage (stages IV-V) gametocytes; assay: P. falciparum late stage gametocyte ATP depletion assay (Pf GC-ATP)
[3] = unified cytotox over Pf GC-ATP IC50, red: <10-fold selectivity, green: >10-fold
[4] = unified cytotox / Pf GC-ATP IC50, red: <10-fold selectivity, green: >10-fold
[5] = unified cytotox / IC50, <10-fold red, >10-fold green

SMILES | Assay tox ratio Pf FGAA [1] | Assay tox ratio Pf GC-ATP [2, 3] | Assay tox ratio Pf GC-ATP [2, 4] | also measured
CNC(=S)NN=C(C)c1ccccn1 [TCMDC-123475] | 1788.22 | 21.37 |  | 
COc1ccc(C[C@H](N)C(=O)N[C@H]2[C@@H](O)[C@H](n3cnc4c(N(C)C)ncnc43)O[C@@H]2CO)cc1 [TCMDC-123493] | 8.24 | 4.22 |  | 
CCN(CC)CCCn1c(N)c(-c2nc3ccccc3[nH]2)c2nc(C#N)c(C#N)nc21 [TCMDC-123680] | 8.80 | 46.31 |  | 
COc1cc2nc(N3CCN(c4nc(N)c5cc(OC)c(OC)cc5n4)CC3)nc(N)c2cc1OC [TCMDC-123865] | 89.78 | 201.90 |  | 
[O-][s+]1c(Cl)c(-c2ccc(Cl)cc2)c2ccc(Cl)cc21 (stereo not shown) [TCMDC-124011] | 329.88 | 603.77 |  | 
C=CCN(C(=O)c1ccc(Cl)c([N+](=O)[O-])c1)c1nc(-c2ccccc2)cs1 [TCMDC-124436] | 775.01 | 949.37 |  | 
Cc1sc2ncnc(Sc3nnc(N)s3)c2c1C [TCMDC-124542] | 47.05 | 121.03 |  | 
COc1ccc(OC)c(-c2cccc(-c3cccc(NC(=O)c4ccc([N+](=O)[O-])o4)c3)n2)c1 [TCMDC-124799] | 5.08 | 6.27 |  | 
O=C(c1ccc([N+](=O)[O-])o1)N1CCC(Cc2ccc(C(F)(F)F)cc2)CC1 [TCMDC-124805] | 132.59 | 80.18 |  | 
CCOc1ccc2nc3cc(NC(=O)c4ccco4)ccc3c(N)c2c1 [TCMDC-125004] | 3.90 | 95.80 |  | 
Cc1ccccc1OCC(O)CNC1CCC(NCC(O)COc2ccccc2C)CC1 (stereo not shown) [TCMDC-125142] | 3.53 | 27.36 |  | 
Cc1c(Cl)cccc1N=C(S)NN=Cc1ccccn1 [TCMDC-125487] | 3567.00 | 370.37 |  | 
Fc1ccc(NC(S)=NN=Cc2ccccn2)cc1 [TCMDC-125521] | 3687.97 | 833.33 |  | 
SC(=Nc1ccc(Cl)c(Cl)c1)NN=Cc1ccccn1 [TCMDC-125522] | 75.56 | 89.77 |  | 
c1ccc2sc(Sc3ncnc4sccc34)nc2c1 [TCMDC-125539] | 734.82 | 201.34 |  | 
S=C(NN=Cc1ccccn1)NC1CC2C=CC1C2 (stereo not shown) [TCMDC-125752] | 45.77 | 6.27 |  | 
COc1ccc(CCNCCCCCCNCCc2ccc(-c3ccccc3)cc2)cc1OC.Cl [TCMDC-131267] | 4.04 | 29.33 |  | 
COc1ccc(CCNCCCCCCNCCc2ccc(Cl)c3ccccc23)cc1OC.Cl [TCMDC-131270] | 4.63 | 21.12 |  | 
Br.Oc1ccc(CCNCCCCCCNCCc2ccc(Cl)c3ccccc23)cc1O [TCMDC-131271] | 5.19 | 23.18 |  | 
COc1ccc(CCNCCCCCCNCCc2ccc(Cl)cc2)c(Cl)c1OC.Cl [TCMDC-131272] | 7.09 | 22.86 |  | 

SMILES | Assay tox ratio Pf FGAA [1] | Assay tox ratio Pf GC-ATP [2, 3] | Assay tox ratio Pf GC-ATP [2, 4] | also measured
Br.CCCCc1ccc(CCNCCCCCCNCCc2ccc(O)c(O)c2)cc1 [TCMDC-131281] | 2.99 | 11.76 |  | 
CCC(CSC1CCCCC1)N(C)CCN(C)C(CC)CSC1CCCCC1.Cl (stereo not shown) [TCMDC-131456] | 0.37 | 0.33 |  | 
Cc1cccc2[nH]cc(C3CCN(CC4CCC(NC(=O)/C=C/c5ccc(Cl)c(Cl)c5)CC4)CC3)c12.Cl (stereo not shown) [TCMDC-140137] |  |  | 2.04 | 
CC(C)CNCc1cccc(-c2cccc(CNCCCN3CCN(C)CC3)c2)c1.O=C(O)C(F)(F)F [TCMDC-140483] |  |  | 15.99 | 
COc1cc(NCC(C)CNCc2cn(Cc3ccccc3)c3ccccc23)nc2ccccc12 (stereo not shown) [TCMDC-140496] |  |  | 2.92 | 
CN(C)CCN(Cc1ccccc1-c1ccc(CNCCc2ccccc2)cc1)C(=O)c1ccccc1.O=C(O)C(F)(F)F [TCMDC-140532] |  |  | 9.67 | 
CC(C)CNCc1cccc(-c2cccc(CN(CCCN3CCN(C)CC3)C(=O)/C=C/c3ccccc3)c2)c1.O=C(O)C(F)(F)F [TCMDC-140541] |  |  | 13.42 | 
CN1CCN(CCCN(Cc2cccc(-c3cccc(CNC4CCCC4)c3)c2)C(=O)/C=C/c2ccccc2)CC1.O=C(O)C(F)(F)F [TCMDC-140543] |  |  | 8.91 | 
CC(C)CNCc1cccc(-c2ccc(CN(CCCN3CCN(C)CC3)C(=O)/C=C/c3ccccc3)cc2)c1.O=C(O)C(F)(F)F [TCMDC-140545] |  |  | 10.56 | 
CC(C)CNCc1ccc(-c2ccc(CN(CCCN3CCN(C)CC3)C(=O)/C=C/c3ccccc3)cc2)cc1.O=C(O)C(F)(F)F [TCMDC-140546] |  |  | 6.97 | 
CC(C)CNCc1ccc(-c2cccc(CN(CCN(C)C)C(=O)CCC3CCCC3)c2)cc1.O=C(O)C(F)(F)F [TCMDC-140553] |  |  | 10.19 | 
CC(C)CNCc1cccc(-c2cccc(CN(CCCN3CCN(C)CC3)C(=O)CCC3CCCC3)c2)c1.O=C(O)C(F)(F)F [TCMDC-140554] |  |  | 7.58 | 
CN1CCN(CCCN(Cc2cccc(-c3cccc(CNC4CCCC4)c3)c2)C(=O)CCC2CCCC2)CC1.O=C(O)C(F)(F)F [TCMDC-140555] |  |  | 9.30 | 
CC(C)CNCc1cccc(-c2ccc(CN(CCCN3CCN(C)CC3)C(=O)CCC3CCCC3)cc2)c1.O=C(O)C(F)(F)F [TCMDC-140558] |  |  | 35.71 | 
CC(C)CNCc1ccc(-c2ccc(CN(CCCN3CCN(C)CC3)C(=O)CCC3CCCC3)cc2)cc1.O=C(O)C(F)(F)F [TCMDC-140559] |  |  | 9.98 | 
CN1CCN(CCCN(Cc2ccc(-c3ccc(CNC4CCCC4)cc3)cc2)C(=O)CCC2CCCC2)CC1.O=C(O)C(F)(F)F [TCMDC-140560] |  |  | 11.21 | 
O=C(O)C(F)(F)F.O=C(c1cccs1)N(Cc1cccc(-c2ccc(CNC3CCCC3)cc2)c1)C1CCN(Cc2ccccc2)CC1 [TCMDC-140567] |  |  | 8.40 | 
CC(C)CNCc1cccc(-c2cccc(CN(CCN(C)C)C(=O)Nc3ccccc3)c2)c1.O=C(O)C(F)(F)F [TCMDC-140592] |  |  | 23.91 | 
CN1CCN(CCCN(Cc2ccc(-c3cccc(CNC4CCCC4)c3)cc2)C(=O)Nc2ccccc2)CC1.O=C(O)C(F)(F)F [TCMDC-140605] |  |  | 80.72 | 
O=C(NCCc1ccccc1)N(Cc1cccc(-c2ccc(CNC3CCCC3)cc2)c1)C1CCN(Cc2ccccc2)CC1.O=C(O)C(F)(F)F [TCMDC-140618] |  |  | 5.66 | 

SMILES | Assay tox ratio Pf FGAA [1] | Assay tox ratio Pf GC-ATP [2, 3] | Assay tox ratio Pf GC-ATP [2, 4] | also measured
CN(C)CCN(Cc1ccccc1-c1ccc(CNCCc2ccccc2)cc1)C(=O)NC1CCCCC1.O=C(O)C(F)(F)F [TCMDC-140626] |  |  | 18.29 | 
CC(C)CNCc1ccc(-c2cccc(CN(C(=O)NC3CCCCC3)C3CCN(Cc4ccccc4)CC3)c2)cc1.O=C(O)C(F)(F)F [TCMDC-140628] |  |  | 1.09 | 
CC(C)CNCc1cccc(-c2cccc(CN(CCCN3CCN(C)CC3)C(=O)NC3CCCCC3)c2)c1.O=C(O)C(F)(F)F [TCMDC-140633] |  |  | 9.43 | 
CN1CCC(N(Cc2ccc(-c3ccc(Cl)cc3)cc2)C(=O)Cn2c(CCc3cccc(F)c3F)cc(=O)c3ccccc32)CC1.O=C(O)C(O)C(O)C(=O)O [TCMDC-141357] |  |  | 1.96 | 
O=C(C1CC1c1ccccc1)N(Cc1ccc(-c2ccc(CNCCc3ccccc3)cc2)cc1)C1CCNCC1.O=C(O)C(F)(F)F (stereo not shown) [TCMDC-141443] |  |  | 17.40 | 
O=C(CC1CCCC1)N(Cc1ccc(-c2ccc(CNC3Cc4ccccc4C3)cc2)cc1)CC1CCCCN1.O=C(O)C(F)(F)F (stereo not shown) [TCMDC-141446] |  |  | 6.45 | 
CC(C)CC(=O)N(Cc1ccc(-c2ccc(CNC3Cc4ccccc4C3)cc2)cc1)C1CCNCC1.O=C(O)C(F)(F)F [TCMDC-141449] |  |  | 9.79 | 
O=C(COc1ccccc1)N(Cc1ccc(-c2ccc(CNC3Cc4ccccc4C3)cc2)cc1)C1CCNCC1.O=C(O)C(F)(F)F [TCMDC-141450] |  |  | 7.91 | 
CN1CCC(C(=O)N(Cc2ccc(-c3ccc(CNCCc4ccccc4)cn3)cc2)C2CCN(Cc3ccccc3)CC2)CC1.O=C(O)C(F)(F)F [TCMDC-141552] |  |  | 10.34 | 
CCN(CC)CCN(Cc1ccc(-c2ccc(C(F)(F)F)cc2)cc1)C(=O)c1ccc(-c2ccc(NC(=O)OC)cc2C)cc1 [TCMDC-141558] |  |  | 1.46 | 
CCN(CC)CCCNc1ncc2c(-c3ccc(NC(=O)Nc4cc(C(F)(F)F)ccc4F)cc3)nn(C)c2n1.O=C(O)C(F)(F)F [TCMDC-141583] |  |  | 2.73 | 
CCN(Cc1ccc(-c2ccc(C(F)(F)F)cc2)cc1)C(=O)Cn1c(SCc2cccc(F)c2F)cc(=O)c2cc(CN3CCCCC3)ccc21.Cl [TCMDC-141592] |  |  | 1.80 | 
CN(C)CCCNc1nccc(N(C)c2ccc(NC(=O)Nc3cc(C(F)(F)F)ccc3F)cc2)n1.O=C(O)C(F)(F)F [TCMDC-141633] |  |  | 17.36 | 
Cc1cc(F)ccc1-c1nc(NCC(O)CNCCc2ccccc2)nc2c1ccc(=O)n2-c1c(F)cccc1F.O=C(O)C(F)(F)F (stereo not shown) [TCMDC-141784] |  |  |  | Assay tox ratio Pf GC-ATP [2, 5]: 50.57
O=C(Nc1cccc(Oc2ccccc2)c1)N[C@H]1CCN(Cc2ccc(OCCCN3CCCCC3)cc2)C1 [TCMDC-141785] |  |  | 3.12 | 
Cc1ccc2nc(C)cc(N/N=C/c3ccc([N+](=O)[O-])cc3)c2c1 [TCMDC-142070] |  |  | 0.02 | 
COc1ccc2c(=NN=Cc3ccc(OC)c4ccccc34)cc(C)[nH]c2c1 [TCMDC-142218] |  |  | 10.16 | 
O=c1c(Br)ccccc1Br [TCMDC-142246] |  |  |  | Assay tox ratio Pf GC-ATP [2, 5]: 66.27
Nc1cc(C=Cc2ccc([N+](=O)[O-])o2)nc2ccccc12 [TCMDC-142295] |  |  | 58.50 | 
Nc1cc(/C=C/c2ccc([N+](=O)[O-])s2)nc2ccccc12 [TCMDC-142296] |  |  | 12.77 | 
